Measured values from patent US6355238B1, “Specific immune system modulation” (Yale University, priority 1992, dated 2002).

Tested on: HIV peptide T
Assay: Covalent photobinding of 8-MOP to HIV peptide T
Format: binding
Details: peptide 0.4 mg/ml, 8-MOP 0.04 mg/ml

COc1c2occc2cc2ccc(=O)oc12 [8-MOP, 8-methoxypsoralen]
8-MOP adducts/HIV peptide (15 min UVA exposure (3.5 mW/cm^2)): 0.028 8-MOP adducts/HIV peptide
8-MOP adducts/HIV peptide (30 min UVA exposure (3.5 mW/cm^2)): 0.041 8-MOP adducts/HIV peptide
